Values from PubChem BioAssay AID624099 (ICCB-Longwood, 2012)

- Test: 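Host factors E2 relies on to silence an HPV18 LCR reporter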 (primary screen)
- Cell system: human C33A cervical carcinoma cells (HPV-negative) stably expressing BPV1 E2 and an HPV18 LCR luciferase reporter
- Reagent: siRNA pool against human genes, 40 nM
- Duration: 72 h
- Read-out: 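Per-well luciferase luminescence, z-scored on each plate against the plate mean and SD with control wells left out, then averaged across three replicate plates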
- Direction: mean z-score and z-score: higher = stronger reporter signal, weaker E2 silencing
- Active means: 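Mean z ≥ 2 together with z ≥ 2 in two or more of the three replicates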
This is a random part of about 21,000 reagents tested. In the full data, 497 (2.4%) were called active. 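Higher z means weaker E2 silencing; only reporter increases were scored, and knock-downs that hurt cell survival may mask genuine repressor factors.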 Unmarked entries are inactive.

Silencing of LOC283583 (retired record) gave: mean z-score 0.71; z-score, replicate A = 1.15; z-score, replicate B = 0.37; z-score, replicate C = 0.62.
After knock-down of TUBA3E, the screen gave mean z-score 0.03; z-score, replicate A = 0.16; z-score, replicate B = 0.11; z-score, replicate C = -0.17.
Against HHIPL2, the entry reads mean z-score 0.07; z-score, replicate A = 0.21; z-score, replicate B = 0.13; z-score, replicate C = -0.11.
For ARB2BP the deposit lists mean z-score -0.61; z-score, replicate A = -0.77; z-score, replicate B = -0.78; z-score, replicate C = -0.28.
OR1A2 showed mean z-score -0.24; z-score, replicate A = -0.35; z-score, replicate B = -0.12; z-score, replicate C = -0.26.
Against AKR7A2, the entry reads mean z-score -0.33; z-score, replicate A = -0.37; z-score, replicate B = -0.7; z-score, replicate C = 0.08.
Silencing of CDHR1 came out at: mean z-score 1.71; z-score, replicate A = 1.62; z-score, replicate B = 1.65; z-score, replicate C = 1.87.
With knock-down of LOC401845 (retired record), the screen gave mean z-score -0.17; z-score, replicate A = -0.29; z-score, replicate B = -0.11; z-score, replicate C = -0.12.

A few values from the entries so far:
Under “z-score, replicate C”, AKR7A2 has 0.08
Value of LOC401845 (retired record) under “z-score, replicate C”: -0.12

Continued:
After knock-down of ACTRT1 the results were mean z-score -0.66; z-score, replicate A = -0.56; z-score, replicate B = -0.54; z-score, replicate C = -0.88.
With knock-down of C4A, the record shows mean z-score -0.14; z-score, replicate A = -0.44; z-score, replicate B = -0.27; z-score, replicate C = 0.31.
SLC10A6 scored mean z-score -0.13; z-score, replicate A = -0.34; z-score, replicate B = 0.18; z-score, replicate C = -0.23.
With knock-down of PCP2, the screen gave mean z-score -0.49; z-score, replicate A = -0.2; z-score, replicate B = -0.55; z-score, replicate C = -0.72.
After knock-down of PGAP3, the record shows mean z-score -0.39; z-score, replicate A = -0.63; z-score, replicate B = -0.23; z-score, replicate C = -0.33.
For PKD1L1, the values are mean z-score -1.6; z-score, replicate A = -1.83; z-score, replicate B = -1.76; z-score, replicate C = -1.19.
